In the NIST ThermoML archive (doi:10.1016/j.jct.2012.09.015):
Numbers after ± are expanded uncertainties.

Experiments:
[1] = 101.33 kPa, Liquid; for speed of sound: Sing-around technique in a fixed-path interferometer; for mass density: Vibrating tube method
[2] = xn = mol fraction of the nth substance listed; settings: 101 kPa, Liquid, Vibrating tube method

CCCCOP(=O)(OCCCC)OCCCC [tributyl phosphate]
[1]
Settings | mass density [kg/m3] | speed of sound [m/s]
298.15 K | 973.85 ± 0.23 | 1272 ± 2
303.15 K | 969.44 ± 0.23 | 1255 ± 2
308.15 K | 965.04 ± 0.23 | 1238 ± 2
313.15 K | 960.62 ± 0.23 | 1221 ± 2
318.15 K | 956.19 ± 0.23 | 1204 ± 2
323.15 K | 951.75 ± 0.23 | 1188 ± 2

CCCCOP(=O)(OCCCC)OCCCC [tributyl phosphate] + C1CCCCC1
mass density [kg/m3], [2]
Settings | x1 = 0.099 | x1 = 0.1993 | x1 = 0.3025 | x1 = 0.4042 | x1 = 0.5063 | x1 = 0.6083 | x1 = 0.7024 | x1 = 0.8027 | x1 = 0.902
298.15 K | 814.12 ± 0.67 | 846.89 ± 0.6 | 874.05 ± 0.49 | 896.02 ± 0.42 | 914.55 ± 0.36 | 930.06 ± 0.33 | 942.9 ± 0.3 | 954.19 ± 0.28 | 964.39 ± 0.29
303.15 K | 809.42 ± 0.67 | 842.23 ± 0.6 | 869.46 ± 0.5 | 891.48 ± 0.42 | 910.06 ± 0.36 | 925.63 ± 0.33 | 938.5 ± 0.3 | 949.8 ± 0.28 | 960.02 ± 0.29
308.15 K | 804.71 ± 0.67 | 837.55 ± 0.6 | 864.84 ± 0.5 | 886.94 ± 0.42 | 905.53 ± 0.36 | 921.2 ± 0.33 | 934.1 ± 0.3 | 945.4 ± 0.29 | 955.65 ± 0.29
313.15 K | 799.98 ± 0.67 | 832.86 ± 0.61 | 860.21 ± 0.5 | 882.38 ± 0.42 | 901.04 ± 0.37 | 916.76 ± 0.33 | 929.69 ± 0.3 | 941.01 ± 0.29 | 951.27 ± 0.29
318.15 K | 795.24 ± 0.67 | 828.15 ± 0.61 | 855.57 ± 0.5 | 877.81 ± 0.42 | 896.51 ± 0.37 | 912.31 ± 0.33 | 925.28 ± 0.3 | 936.6 ± 0.29 | 946.89 ± 0.29
323.15 K | 790.47 ± 0.67 | 823.42 ± 0.61 | 850.91 ± 0.5 | 873.23 ± 0.43 | 891.96 ± 0.37 | 907.86 ± 0.33 | 920.86 ± 0.3 | 932.19 ± 0.29 | 942.5 ± 0.29
